Compound potency records, mixed from different reports. Data source: NIAID ChemDB in PubChem.

All rows: host cell toxicity; cells: MT-4; measure: CC50

Lines come from different laboratories, so protocols vary.

structure,method,value
N#Cc1ccc(Nc2nc(Oc3c(Br)cc(Br)cc3Br)ncc2NC(=O)C(F)(F)F)cc1,MTT,17 µM
O=C1CC(c2ccc([N+](=O)[O-])cc2)n2nc(-c3ccc4ccccc4c3)nc2N1,visual reading,>100 µg/mL
COc1cc2c(cc1OC)C1=NOC(c3cccs3)C1C2,MTT,11.74 µM
N#Cc1cc(Cl)cc(Oc2cc(OCc3[nH]nc4nc(N5CCC(N)C5)ccc34)ccc2Cl)c1,microscopy,>20 µM
C=C1CN(S(=O)(=O)c2ccc(C)cc2)CCCN(Cc2ccncc2)CCCN(S(=O)(=O)c2ccc(C)cc2)C1,trypan blue / propidium iodide,32.4 µM
[O-][n+]1nc2c(-c3ccc(F)cc3)cnn2c2cc(Cl)ccc21,-,>200 µM
O=C(O)C1=CC(=C(c2ccc(O)c(C(=O)O)c2)c2ccc(O)c(C(=O)O)c2)C=CC1=O,-,590 µM
Cc1c(O)cccc1C(=O)N[C@@H](CSc1ccccc1)[C@@H](CN1C[C@H]2CCCC[C@H]2C[C@H]1C(=O)NC(C)(C)C)OC(=O)NCCCCOc1ccc(C[C@H](N)C(=O)O)cc1,MTT,>100 µM
O=C1CC(c2ccccc2)n2nc(-c3ccncc3)nc2N1,visual reading,>100 µg/mL
COC(=O)C(CCSC)NC(=O)CCCN1C(=O)c2ccccc2C1=O,MTT,18.85 µM
C=C1CN(S(=O)(=O)c2ccc(C)cc2)CCCN(C(C)C)CCCN(S(=O)(=O)c2ccc(C)cc2)C1,trypan blue / propidium iodide,38.9 µM
CCCCCc1nc2n(n1)C(c1ccccc1)CC(=O)N2,visual reading,>100 µg/mL
C=C1CN(S(=O)(=O)c2ccc(C)cc2)CCCN(C(C)=O)CCCN(S(=O)(=O)c2ccc(C)cc2)C1,trypan blue / propidium iodide,>75 µM
Nc1ccn([C@H]2CC[C@@H](CO)O2)c(=O)n1,-,29 µg/mL
O=C(O)CCCCCCCCCCCCCNC(=O)C(CO[C@@H]1O[C@H](CO)[C@H](O)[C@H](O)[C@H]1O)NC(=O)CCCCCCCCCCC(=O)O,-,>100 µM
Cc1c(C(C)(O)c2ccc(F)cc2)n(COCc2ccccc2)c(=O)[nH]c1=O,MTT,237 µM
Cc1ccc(C(=O)Nc2ccc(S(=O)(=O)O)c3cc(S(=O)(=O)O)cc(S(=O)(=O)O)c23)cc1NC(=O)c1cccc(NC(=O)Nc2cccc(C(=O)Nc3cc(C(=O)Nc4ccc(S(=O)(=O)O)c5cc(S(=O)(=O)O)cc(S(=O)(=O)O)c45)ccc3C)c2)c1,-,625 µM
CC(CS)C(=O)N1CCC[C@@H]1C(=O)NCC(=O)N1CCN(c2nc3ccccc3s2)CC1,MTT,1.21 µg/mL
CC(C)(C)NC(=O)c1ccccc1NCC(O)Cn1c(C(=O)NC(C)(C)C)cc2ccccc21,-,27 µM
NS(=O)(=O)c1ccc(NC(=O)COc2cccc(Oc3ccccc3)c2)c(Cl)c1,microscopy,>20 µM
COc1cc2c(cc1OC)C1=NOC(c3ccc(F)cc3)C1C2,MTT,>125 µM
COc1ccccc1N1CCN(CCCN2C(=O)C3C4CCC(C(=O)C4)C3C2=O)CC1,MTT,>100 µM
N#Cc1ccc(Nc2nc(Oc3c(Cl)cc(Cl)cc3Cl)ncc2NC(=O)C(F)(F)F)cc1,MTT,>248 µM
CCOC(=O)c1cn(CC(O)CNc2ccc(C(=O)OC)cc2)cc1-c1ccccc1,-,61.3 µM
CCc1c(Cc2ccccc2)n2c(nc1=O)SCC2OCCO,-,>100 µM
COC(=O)C(NC(=O)CCCN1C(=O)c2ccccc2C1=O)C(C)O,MTT,37.82 µM
O=C(O)CCCCCCCCCCCCC(=O)NC(CO[C@@H]1O[C@H](CO)[C@H](O)[C@H](O)[C@H]1O)C(=O)NCCOS(=O)(=O)O,-,>100 µM
CC(NC(=S)NC(=O)CCCN1C(=O)c2ccccc2C1=O)C(=O)O,MTT,125 µM
COC1CSc2nc(=O)c(C(C)C)c(Cc3ccccc3)n21,-,>100 µM
C[C@H](CS)C(=O)N1CCC[C@@H]1c1nc2ncnc(N)c2[nH]1,MTT,24.7 µg/mL
COC(=O)C(CO)NC(=O)CCCN1C(=O)c2ccccc2C1=O,MTT,96.11 µM
Cc1c(OC(=O)CCCCOc2ccc(C[C@H](NC(=O)OC(C)(C)C)C(=O)O)cc2)cccc1C(=O)N[C@@H](CSc1ccccc1)[C@@H](CN1C[C@H]2CCCC[C@H]2C[C@H]1C(=O)NC(C)(C)C)OC(=O)CCCCOc1ccc(C[C@H](NC(=O)OC(C)(C)C)C(=O)O)cc1,MTT,>100 µM
COC1CSc2nc(Cc3ccccc3)c(C(C)C)c(=O)n21,-,<100 µM
N#Cc1ccc(Nc2nc(Oc3c(Cl)cccc3Cl)ncc2N)cc1,MTT,33 µM
CCOC(=O)c1cnn2c1nnc1cc(Cl)ccc12,-,192 µM
COc1cccc2c1nc(-c1ccccc1F)n2Cc1ccncc1,-,65.8 µg/mL
CCN(CC)CC(O)CN1C(=O)C2C3CCC(C(=O)C3)C2C1=O,MTT,>100 µM
CC(C)(C)NC(=O)c1ccccc1SCC(O)Cn1cc(C(=O)NC(C)(C)C)c(-c2ccccc2)c1,-,101 µM
CC(C)C[C@H](NC(=O)OC(C)(C)C)C(=O)O[C@@H]1Cc2ccccc2[C@@H]1NC(=O)[C@H](Cc1ccccc1)C[C@H](O)CN1CCN(Cc2cccnc2)C[C@H]1C(=O)NC(C)(C)C,MTT,>100 µM
COc1cc(/C=C/c2nc(NC(=O)Nc3ccc(Cl)cc3)c3ccccc3n2)cc(OC)c1OC,MTT,4.97 µg/mL
COC(=O)C(CS)NC(=O)CCCN1C(=O)c2ccccc2C1=O,MTT,60.33 µM
COc1ccc(Nc2nn3c(=O)c4ccccc4nc3s2)cc1,MTT,>97.4 µg/mL
N#Cc1cc(Cl)cc(Oc2cc(OCc3nc4cccc(Cl)c4s3)ccc2Cl)c1,microscopy,>20 µM
CCc1nc([N+](=O)[O-])c(N2CCN(C(=O)CSC[C@@H](C)C(=O)N3CCC[C@@H]3C(=O)O)CC2)n1Cc1ccccc1,MTT,2.23 µg/mL
O=C1CC2CCC1C1C(=O)NC(=O)C21,MTT,>100 µM
COc1cc2c(cc1OC)C1=NOC(c3ccco3)C1C2,MTT,10.76 µM
N#Cc1cnn2c1n[n+]([O-])c1cc(Cl)ccc12,-,13 µM
CCCCCCCCCCCCCCCC(=O)OCC(COC(=O)CCCCCCCCCCCCCCC)OC(=O)CCC(=O)O[C@@H](C[C@@H](Cc1ccccc1)C(=O)N[C@H]1c2ccccc2C[C@H]1OC(=O)CCC(=O)OC(COC(=O)CCCCCCCCCCCCCCC)COC(=O)CCCCCCCCCCCCCCC)CN1CCN(Cc2cccnc2)C[C@H]1C(=O)NC(C)(C)C,MTT,>100 µM
C=CCNc1nn2c(=O)c3ccccc3nc2s1,MTT,>66.8 µg/mL
CCCCCCCCCCCCCC(=O)NCC(C(=O)CCCCCCCCCCCCC)C(=O)NCCNC(=O)C(O)C(O[C@@H]1O[C@H](CO)[C@H](O)[C@H](O)[C@H]1O)C(O)CO,-,>100 µM
COc1cc(OC)cc(C(C)(O)c2c(C)c(=O)[nH]c(=O)n2COCc2ccccc2)c1,MTT,144 µM
COc1ccccc1NC(=S)Nc1nc(/C=C/c2cc(OC)c(OC)c(OC)c2)nc2ccccc12,MTT,3.42 µg/mL
CCOC(=O)c1cn(CC(O)CNc2cccc(C)c2)cc1-c1ccccc1,-,22.2 µM
Cc1c(OC(=O)CCCCOc2ccc(C[C@H](NC(=O)OC(C)(C)C)C(=O)O)cc2)cccc1C(=O)N[C@@H](CSc1ccccc1)[C@H](O)CN1C[C@H]2CCCC[C@H]2C[C@H]1C(=O)NC(C)(C)C,MTT,>100 µM
Cc1cc(OCC(=O)Nc2ccc(S(N)(=O)=O)cc2Cl)cc(Oc2cc(Cl)cc(C#N)c2)c1,microscopy,>20 µM
Cc1cc(C#N)cc(C)c1Oc1nc(Nc2ccc(C#N)cc2)nc(N)c1Br,MTT,27 µM
COC(=O)[C@H](C)NP(=O)(C[C@H]1O[C@@H](n2cc(C)c(=O)[nH]c2=O)C[C@@H]1N=[N+]=[N-])O[C@H]1C[C@H](n2cc(C)c(=O)[nH]c2=O)O[C@@H]1CO,-,180 µg/mL
COc1cccc2c1nc(-c1ccccc1F)n2CC1CCC1,-,11.2 µg/mL
C[C@H](CS)C(=O)N1CCC[C@@H]1c1nc2ncncc2[nH]1,MTT,59.05 µg/mL
COc1ccc(C2CC(=O)Nc3nc(-c4cccnc4)nn32)cc1,visual reading,>100 µg/mL
CCc1c(Cc2cccc3ccccc23)nc2n(c1=O)C(OC)CS2,-,<100 µM
N#Cc1cc(Cl)cc(Oc2cc(Cl)cc(OCC(=O)Nc3ccc4nc[nH]c4c3)c2)c1,microscopy,>20 µM
CCOC1CSc2nc(=O)c(CC)c(Cc3cccc4ccccc34)n21,-,<100 µM
C=C1CN(S(=O)(=O)c2ccc(C)cc2)CCCN(Cc2cccnc2)CCCN(S(=O)(=O)c2ccc(C)cc2)C1,trypan blue / propidium iodide,32.6 µM
Cc1c(C(C)(O)c2ccccc2F)n(COCc2ccccc2)c(=O)[nH]c1=O,MTT,185 µM
CC(C)C(NC(=S)NC(=O)CCCN1C(=O)c2ccccc2C1=O)C(=O)O,MTT,26.73 µM
Cc1ccccc1C(c1c(C)c(=O)[nH]c(=O)n1COCc1ccccc1)C(C)C,MTT,34.7 µM
COc1cccc2c1nc(-c1ccccc1F)n2Cc1cccc(F)c1F,-,15.7 µg/mL
COc1cc(/C=C/c2nc(NC(=S)Nc3ccc([N+](=O)[O-])cc3)c3ccccc3n2)cc(OC)c1OC,MTT,3.87 µg/mL
CC(C)(C)NC(=O)[C@@H]1CN(Cc2cccnc2)CCN1C[C@H](C[C@@H](Cc1ccccc1)C(=O)N[C@H]1c2ccccc2C[C@H]1O)OC(=O)NCCCCOc1ccc(C[C@H](N)C(=O)O)cc1,MTT,>100 µM
Cc1cc(C)cc(S(=O)(=O)c2c(C(=O)/C=C/C(N)=O)[nH]c3ccc(Cl)cc23)c1,MTT,>200 µM
COc1cc2c(cc1OC)C1=NOC(c3ccccc3)C1C2,MTT,12.9 µM
C=C1CN(S(=O)(=O)c2ccc(C)cc2)CCCN(CCC)CCCN(S(=O)(=O)c2ccc(C)cc2)C1,trypan blue / propidium iodide,36.4 µM
O=C(CCCN1C(=O)c2ccccc2C1=O)NC(=S)NC(Cc1ncc[nH]1)C(=O)O,MTT,47.26 µM
[O-][n+]1nc2c(Br)cnn2c2ccccc21,-,>200 µM
CC(C)(C)NC(=O)[C@@H]1CN(Cc2cccnc2)CCN1C[C@@H](O)C[C@@H](Cc1ccccc1)C(=O)N[C@H]1c2ccccc2C[C@H]1OC(=O)[C@H](Cc1ccccc1)NC(=O)OC(C)(C)C,MTT,>100 µM
COc1cc(/C=C/c2nc(NC(=S)Nc3ccc(C)cc3)c3ccccc3n2)cc(OC)c1OC,MTT,1.7 µg/mL
O=[N+]([O-])c1ccc2c(c1)nnc1c(Br)cnn12,-,>200 µM
N#Cc1ccc(Nc2nc(Oc3c(Cl)cccc3Cl)ncc2NC(=O)C(F)(F)F)cc1,MTT,190 µM
C=C1CN(S(=O)(=O)c2ccc(C)cc2)CCCN(Cc2ccccn2)CCCN(S(=O)(=O)c2ccc(C)cc2)C1,trypan blue / propidium iodide,>75 µM
C=CCC(C(=O)O)c1c(-c2ccccc2)c2cc(Cl)ccc2[nH]c1=O,-,67.3 µM
CCCCCCCCCCCCCCCC(=O)OCC(COC(=O)CCCCCCCCCCCCCCC)OC(=O)CCC(=O)O[C@@H]1Cc2ccccc2[C@@H]1NC(=O)[C@H](Cc1ccccc1)C[C@H](O)CN1CCN(Cc2cccnc2)C[C@H]1C(=O)NC(C)(C)C,MTT,>100 µM
Cc1cn(CCO[C@@H]2O[C@H](CO)[C@@H](N=[N+]=[N-])[C@H]2O)c(=O)[nH]c1=O,MTT,>100 µg/mL
COc1cccc2c1nc(-c1ccccc1F)n2Cc1ccc(F)cc1,-,13.8 µg/mL

A second listing of 7 rows from above:

| structure | method | value |
|---|---|---|
| C=CCC(C(=O)O)c1c(-c2ccccc2)c2cc(Cl)ccc2[nH]c1=O | - | 67.3 µM |
| O=C1CC(c2ccccc2)n2nc(-c3ccncc3)nc2N1 | visual reading | >100 µg/mL |
| N#Cc1ccc(Nc2nc(Oc3c(Br)cc(Br)cc3Br)ncc2NC(=O)C(F)(F)F)cc1 | MTT | 17 µM |
| CCc1c(Cc2ccccc2)n2c(nc1=O)SCC2OCCO | - | >100 µM |
| CC(NC(=S)NC(=O)CCCN1C(=O)c2ccccc2C1=O)C(=O)O | MTT | 125 µM |
| CCOC(=O)c1cn(CC(O)CNc2cccc(C)c2)cc1-c1ccccc1 | - | 22.2 µM |
| COc1cc2c(cc1OC)C1=NOC(c3ccco3)C1C2 | MTT | 10.76 µM |

CCn is the concentration with n% toxicity to the cells. An empty or dashed field is not shown.